Compound potency records, mixed from different reports. Data source: NIAID ChemDB in PubChem.

All rows: growth or infection tests; species: Mycobacterium avium

Neighbouring rows are from separate reports.

SMILES,strain,read by,conditions,measure,tested at,result
CCc1cc(C(N)=S)ccn1,3337-4,,,MBC,,80 µg/mL
Cc1cn([C@@H]2O[C@H](CO)[C@@H](O)[C@H]2F)c(=O)[nH]c1=O,ATCC 25291,,,inhibition,50 µg/mL,0%
CCCCCCCc1ccc(NC(=O)NNC(=O)c2ccncc2)cc1,MY330/88,broth dilution,21 d,MIC100,,62.5 µM
CCc1nc2ccc(Cl)cn2c1C(=O)NCc1ccc(-c2cccc(OC(F)(F)F)c2)c(F)c1,,fluorescence,,inhibition,0.0023 µM,85%
N/C(=N\NC(CC(=O)c1ccc(Cl)cc1)c1ccccn1)c1ccccn1,17 strains,,,MIC90,,160 µg/mL
O=c1ccn([C@@H]2O[C@H](CO)[C@@H](O)[C@H]2F)c(=O)[nH]1,ATCC 25291,,,inhibition,50 µg/mL,0%
Cc1nc2cc(Cl)ccn2c1C(=O)NCc1ccc(N2CCN(c3ccc(OC(F)(F)F)cc3)[C@@H](C)C2)c(F)c1.Cl,,fluorescence,,inhibition,0.11 µM,85%
O=C(NNC(=O)c1ccncc1)Nc1ccc(Cl)c(Cl)c1,MY330/88,broth dilution,21 d,MIC100,,>125 µM
Cc1ccc(C(=O)CC(N/N=C(\N)c2ccccn2)c2cccnc2)cc1,17 strains,,,MIC50,,160 µg/mL
CCCCCc1ccc(NC(=O)NNC(=O)c2ccncc2)cc1,MY330/88,broth dilution,14 d,MIC100,,62.5 µM
N/C(=N\NC(CC(=O)c1ccc(Cl)cc1Cl)c1ccccn1)c1ccccn1,17 strains,,,MIC90,,160 µg/mL
Cc1ccc2nc(Cl)c(C(=O)NCc3ccc(N4CCN(c5ccc(OC(F)(F)F)cc5)[C@@H](C)C4)c(F)c3)n2c1.Cl,,fluorescence,,inhibition,0.0036 µM,85%
O=c1[nH]c(=O)n([C@H]2C[C@H](O)[C@@H](CO)O2)cc1O,ATCC 25291,,,EC50,,>50 µg/mL
O=C(NNC(=O)c1ccncc1)Nc1ccc(F)cc1Br,MY330/88,broth dilution,21 d,MIC100,,>125 µM
COc1ccn2nc(C)c(C(=O)NCc3ccc(N4CCC(c5ccc(OC(F)(F)F)cc5)CC4)c(F)c3)c2c1.Cl,,fluorescence,,inhibition,0.014 µM,85%
O=c1[nH]c(=O)n([C@H]2C[C@H](F)[C@@H](CO)O2)cc1Br,ATCC 25291,,,inhibition,50 µg/mL,0%
CCc1nc2cc(F)ccn2c1C(=O)NCc1cc(F)c(N2CCC(c3ccc(OC(F)(F)F)cc3)CC2)c(F)c1.Cl,,fluorescence,,inhibition,0.0061 µM,85%
COc1ccc(NC(=O)NNC(=O)c2ccncc2)cc1,MY330/88,broth dilution,14 d,MIC100,,32 µM
N/C(=N\NC(CC(=O)c1ccc(-c2ccccc2)cc1)c1ccccn1)c1ccccn1,17 strains,,,MIC50,,64 µg/mL
O=c1[nH]c(=O)n([C@@H]2O[C@H](CO)[C@@H](O)[C@H]2F)cc1/C=C/I,ATCC 25291,,,EC50,,>50 µg/mL
Cc1nc2ccc(Br)cn2c1C(=O)NCc1ccc(N2CCN(c3ccc(C(F)(F)F)cn3)CC2)c(F)c1,,fluorescence,,inhibition,0.02 µM,85%
O=c1[nH]c(=O)n([C@@H]2O[C@H](CO)[C@@H](O)[C@H]2F)cc1F,ATCC 25291,,,inhibition,50 µg/mL,0%
N/C(=N\NC(CC(=O)c1ccc(Cl)cc1)c1ccncc1)c1ccccn1,17 strains,,,MIC90,,32 µg/mL

Repeating the final 2 entries:

O=c1[nH]c(=O)n([C@@H]2O[C@H](CO)[C@@H](O)[C@H]2F)cc1F ; strain: ATCC 25291 ; measure: inhibition ; tested at: 50 µg/mL ; result: 0%
N/C(=N\NC(CC(=O)c1ccc(Cl)cc1)c1ccncc1)c1ccccn1 ; strain: 17 strains ; measure: MIC90 ; result: 32 µg/mL

A number after MIC or MFC names an inhibition level or a share of isolates. Blank or dashed fields: not listed here. Percent inhibition refers to the dose given; in toxicity tests it is the harm to the cells. ECn: concentration that inhibits the pathogen or its effect by n%.